Measurements published in US9428542B2, “Lupane triterpenoid derivatives and pharmaceutical use thereof” (priority 2012, dated 2016).

test system: HIV-1IIIB; assay: HIV-1 full replication assay (HIV-1IIIB-infected MT-2 cells, supernatant read out on TZM-bl cells, β-Gal); type: cell-based; details: Therapeutic Index (TI)=TC50/IC50
Experimental: The antiviral activity of the compounds of the present invention was determined in a HIV-1 full replication assay.
In this assay, MT-2 cells that are infected with HIV-1IIIB were co-cultured with different concentration of the tested compounds for 3 days and then supernatant is transferred into new 384-well plates containing TZM-bl cells (also called JC53-bl). TZM-bl cells that could be infected by various kinds of HIV-1 strains stably express a great amount of HIV-1 receptor, co-receptor CD4 molecular, and co-receptor CXCR4 and CCR5. TZM-bl cells harbor LTR-luciferase and β-gal two report genes. The expression of luciferase and β-gal reporter directed by HIV-1 LTR can be activated by Tat protein generated after HIV infection, and the quantity of expression is proportional to the quantity of HIV-1. Compounds that interfere with virus replication in MT-2 cells, maturation of the virus, or post-entry steps in the HIV lifecycle decrease the luciferase signal or β-gal signal. In this experiment, BVM (Bevirimat, PA-457) is used as a positive control drug.
Method for Inhibiting HIV-1 Replication Assay:
The MT-2 cells are infected at a Multiciplicity (MOI) of 0.01 TCID50, and then the MT-2 cells suspension was diluted to a needed concentration. 90 μl of the MT-2 cells suspension from above was added into 384-well plates containing 10 μl of the tested compounds.
Compounds were dissolved in DMSO and tested as 11 points 3-fold serial dilutions. After addition of cells to compound plates, plates were placed to humidified 5% CO2 37 incubator for 3 days. 10 μl of cells culture supernatant from the incubated plates was transferred into new black 384-well plates.
Adjusted the TZMb1 cells concentration and 40 μl of TZMb1 cells was added into each well in the black 384-well plates. After addition of the TZMb1 cells to the black plates, black plates were placed to humidified 5% CO2 37 incubator for 24 h, then β-Gal activity was measured.
The anti viral activity %=(measured number-lowest mean number)/(highest mean number-lowest mean number)×100. The IC50 values were calculated by Median Equation and the IC curve was generated by Graphpad Prism V 5.03.
TC50 is referred to the toxicity in MT-2 cells by the compounds tested at 50% concentration; IC50 is referred to the inhibiting HIV-1IIIB replication in MT-2 cells by the compounds tested at 50% concentration; Therapeutic Index (TI)=TC50/IC50.

SMILES | TI
CC(C)C1=C2[C@H]3CC[C@@H]4[C@@]5(C)CC[C@H](OC(=O)CC(C)(C)C(=O)O)C(C)(C)[C@@H]5CC[C@@]4(C)[C@]3(C)CC[C@@]2(c2cc(=O)n(-c3ccc(Cl)cc3)n2C)CC1 [Compound 96-1] | 525
CC(C)C1=C2[C@H]3CC[C@@H]4[C@@]5(C)CC[C@H](OC(=O)CC(C)(C)C(=O)O)C(C)(C)[C@@H]5CC[C@@]4(C)[C@]3(C)CC[C@@]2(Nc2nnc(-c3ccc(Cl)cc3)o2)CC1=O [Compound 141-1] | 4727
CC(C)C1=C2[C@H]3CC[C@@H]4[C@@]5(C)CC[C@H](OC(=O)CC(C)(C)C(=O)O)C(C)(C)[C@@H]5CC[C@@]4(C)[C@]3(C)CC[C@@]2(c2cc(=O)n(CC(=O)O)n2C)CC1=O [Compound 91-5] | 76
CC(C)C1=C2[C@H]3CC[C@@H]4[C@@]5(C)CC[C@H](OC(=O)CC(C)(C)C(=O)O)C(C)(C)[C@@H]5CC[C@@]4(C)[C@]3(C)CC[C@@]2([C@@H](O)c2nnc(-c3ccc(Cl)cc3)o2)CC1=O [Compound 127-1] | 125000
CC(C)C1=C2[C@H]3CC[C@@H]4[C@@]5(C)CC[C@H](OC(=O)CC(C)(C)C(=O)O)C(C)(C)[C@@H]5CC[C@@]4(C)[C@]3(C)CC[C@@]2([C@H](O)c2nnc(-c3ccc(Cl)cn3)o2)CC1=O [Compound 127-4] | 5263
CNCCn1c(C[C@@]23CC[C@]4(C)[C@H](CC[C@@H]5[C@@]6(C)CC[C@H](OC(=O)CC(C)(C)C(=O)O)C(C)(C)[C@@H]6CC[C@]54C)C2=C(C(C)C)C(=O)C3)nnc1-c1ccc(Cl)cc1 [Compound 116-2] | 5625
C=C(C)[C@@H]1CC[C@]2(C(=O)O)CC[C@]3(C)[C@H](CC[C@@H]4[C@@]5(C)CC[C@H](OC(=O)CC(C)(C)C(=O)O)C(C)(C)[C@@H]5CC[C@]43C)[C@@H]12 [BVM, Bevirimat, reference compound] | 12800
CC(C)C1=C2[C@H]3CC[C@@H]4[C@@]5(C)CC[C@H](OC(=O)CC(C)(C)C(=O)O)C(C)(C)[C@@H]5CC[C@@]4(C)[C@]3(C)CC[C@@]2(Cc2nnc(-c3ccc(Cl)cn3)o2)CC1=O [Compound 22-3] | 22500
CC(C)C1=C2[C@H]3CC[C@@H]4[C@@]5(C)CC[C@H](OC(=O)CC(C)(C)C(=O)O)C(C)(C)[C@@H]5CC[C@@]4(C)[C@]3(C)CC[C@@]2(Cc2nnc(-c3ccccc3)o2)CC1=O [Compound 22-2] | 16470
CC(C)C1=C2[C@H]3CC[C@@H]4[C@@]5(C)CC[C@H](OC(=O)CC(C)(C)C(=O)O)C(C)(C)[C@@H]5CC[C@@]4(C)[C@]3(C)CC[C@@]2([C@@H](O)c2nnc(-c3ncc(Cl)cn3)o2)CC1=O [Compound 127-5] | 38000
CC(C)C1=C2[C@H]3CC[C@@H]4[C@@]5(C)CC[C@H](OC(=O)CC(C)(C)C(=O)O)C(C)(C)[C@@H]5CC[C@@]4(C)[C@]3(C)CC[C@@]2(c2cc(=O)n(CC(N)=O)n2C)CC1=O [Compound 91-6] | 24000
CC(C)C1=C2[C@H]3CC[C@@H]4[C@@]5(C)CC[C@H](OC(=O)CC(C)(C)C(=O)O)C(C)(C)[C@@H]5CC[C@@]4(C)[C@]3(C)CC[C@@]2(c2nnc(Nc3ccc(Cl)cc3)o2)CC1=O [Compound 133-1] | 2100
CC(C)C1=C2[C@H]3CC[C@@H]4[C@@]5(C)CC[C@H](OC(=O)CC(C)(C)C(=O)O)C(C)(C)[C@@H]5CC[C@@]4(C)[C@]3(C)CC[C@@]2(c2cc(=O)n(Cc3ccccc3)n2C)CC1 [Compound 89-2] | 633
COc1ccc(-n2c(=O)cc([C@@]34CC[C@]5(C)[C@H](CC[C@@H]6[C@@]7(C)CC[C@H](OC(=O)CC(C)(C)C(=O)O)C(C)(C)[C@@H]7CC[C@]65C)C3=C(C(C)C)C(=O)C4)n2C)cn1 [Compound 98-2] | 14667
CC(C)C1=C2[C@H]3CC[C@@H]4[C@@]5(C)CC[C@H](OC(=O)CC(C)(C)C(=O)O)C(C)(C)[C@@H]5CC[C@@]4(C)[C@]3(C)CC[C@@]2(c2cc(=O)n(-c3ccc(F)cc3)n2C)CC1=O [Compound 98-3] | 91304
CC(C)C1=C2[C@H]3CC[C@@H]4[C@@]5(C)CC[C@H](OC(=O)CC(C)(C)C(=O)O)C(C)(C)[C@@H]5CC[C@@]4(C)[C@]3(C)CC[C@@]2(Cc2nnc(Cc3ccc(Cl)cc3)o2)CC1=O [Compound 33] | 11250

SMILES | TI
CC(C)C1=C2[C@H]3CC[C@@H]4[C@@]5(C)CC[C@H](OC(=O)CC(C)(C)C(=O)O)C(C)(C)[C@@H]5CC[C@@]4(C)[C@]3(C)CC[C@@]2(Nc2nnc(-c3ccc(Cl)cn3)o2)CC1=O [Compound 141-2] | 92307
CC(C)C1=C2[C@H]3CC[C@@H]4[C@@]5(C)CC[C@H](OC(=O)CC(C)(C)C(=O)O)C(C)(C)[C@@H]5CC[C@@]4(C)[C@]3(C)CC[C@@]2(c2nnc(-c3ncc(Cl)cn3)o2)CC1=O [Compound 27-14] | 9388
CNC(=O)Cn1c(=O)cc([C@@]23CC[C@]4(C)[C@H](CC[C@@H]5[C@@]6(C)CC[C@H](OC(=O)CC(C)(C)C(=O)O)C(C)(C)[C@@H]6CC[C@]54C)C2=C(C(C)C)C(=O)C3)n1C [Compound 91-7] | 97143
CC(C)C1=C2[C@H]3CC[C@@H]4[C@@]5(C)CC[C@H](OC(=O)CC(C)(C)C(=O)O)C(C)(C)[C@@H]5CC[C@@]4(C)[C@]3(C)CC[C@@]2(Cc2nnc(-c3ccc(C#N)cn3)o2)CC1=O [Compound 22-15] | 16191
CC(C)C1=C2[C@H]3CC[C@@H]4[C@@]5(C)CC[C@H](OC(=O)CC(C)(C)C(=O)O)C(C)(C)[C@@H]5CC[C@@]4(C)[C@]3(C)CC[C@@]2(Cc2nnc(-c3ccc(F)cn3)o2)CC1=O [Compound 22-18] | 28235
CCn1c([C@@]23CC[C@]4(C)[C@H](CC[C@@H]5[C@@]6(C)CC[C@H](OC(=O)CC(C)(C)C(=O)O)C(C)(C)[C@@H]6CC[C@]54C)C2=C(C(C)C)C(=O)C3)cc(=O)n1-c1ccc(Cl)cc1 [Compound 98-5] | 76471
CC(C)C1=C2[C@H]3CC[C@@H]4[C@@]5(C)CC[C@H](OC(=O)CC(C)(C)C(=O)O)C(C)(C)[C@@H]5CC[C@@]4(C)[C@]3(C)CC[C@@]2(c2cc(=O)n(-c3ccc(Cl)cn3)n2C)CC1=O [Compound 98-7] | 1176471
CC(C)C1=C2[C@H]3CC[C@@H]4[C@@]5(C)CC[C@H](OC(=O)CC(C)(C)C(=O)O)C(C)(C)[C@@H]5CC[C@@]4(C)[C@]3(C)CC[C@@]2(c2cc(=O)n(Cc3ccc(Cl)cc3)n2C)CC1=O [Compound 91-1] | 8723
CC(C)C1=C2[C@H]3CC[C@@H]4[C@@]5(C)CC[C@H](OC(=O)CC(C)(C)C(=O)O)C(C)(C)[C@@H]5CC[C@@]4(C)[C@]3(C)CC[C@@]2(c2nnc(-c3ccc(C(F)(F)F)cn3)o2)CC1=O [Compound 27-11] | 920
CC(C)C1=C2[C@H]3CC[C@@H]4[C@@]5(C)CC[C@H](OC(=O)CC(C)(C)C(=O)O)C(C)(C)[C@@H]5CC[C@@]4(C)[C@]3(C)CC[C@@]2(Cc2cc(=O)n(-c3ccc(Cl)cc3)n2C)CC1=O [98′-1] | 364706
CC(C)C1=C2[C@H]3CC[C@@H]4[C@@]5(C)CC[C@H](OC(=O)CC(C)(C)C(=O)O)C(C)(C)[C@@H]5CC[C@@]4(C)[C@]3(C)CC[C@@]2(c2cc(=O)n(-c3ccc(Cl)cc3)n2CCN)CC1=O [Compound 155-1] | 48750
CC(C)C1=C2[C@H]3CC[C@@H]4[C@@]5(C)CC[C@H](OC(=O)CC(C)(C)C(=O)O)C(C)(C)[C@@H]5CC[C@@]4(C)[C@]3(C)CC[C@@]2([C@H](O)c2nnc(-c3ccc(Cl)cc3)o2)CC1=O [Compound 127-2] | 1800
CC(C)C1=C2[C@H]3CC[C@@H]4[C@@]5(C)CC[C@H](OC(=O)CC(C)(C)C(=O)O)C(C)(C)[C@@H]5CC[C@@]4(C)[C@]3(C)CC[C@@]2(c2nnc(-c3ccccc3)o2)CC1=O [Compound 27-2] | 50000
CC(C)C1=C2[C@H]3CC[C@@H]4[C@@]5(C)CC[C@H](OC(=O)CC(C)(C)C(=O)O)C(C)(C)[C@@H]5CC[C@@]4(C)[C@]3(C)CC[C@@]2(c2cc(=O)n(-c3ccc(Cl)cc3)n2C)CC1=O [Compound 98-1] | 14117
CC(C)C1=C2[C@H]3CC[C@@H]4[C@@]5(C)CC[C@H](OC(=O)CC(C)(C)C(=O)O)C(C)(C)[C@@H]5CC[C@@]4(C)[C@]3(C)CC[C@@]2(c2cc(=O)n(Cc3ccc(Cl)cc3)n2C)CC1=O [91′-1] | 373
CC(C)C1=C2[C@H]3CC[C@@H]4[C@@]5(C)CC[C@H](OC(=O)CC(C)(C)C(=O)O)C(C)(C)[C@@H]5CC[C@@]4(C)[C@]3(C)CC[C@@]2(c2nnc(-c3ccc(Cl)cc3)s2)CC1=O [Compound 102] | 56.7
